Record: PubChem BioAssay AID1259414 (Drosophila RNAi Screening Center, 2018)
In all, the deposit lists about 24,000 reagents; this is a random part of those that have a named target and a result. In the full data, about 1,210 (5%) were called active. 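Inactive calls also include excluded dsRNAs with several or no targets, genes unexpressed in JW18, and well A1, regardless of score.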 Reagents against one gene are numbered here. A plus sign joins genes that one reagent is predicted to hit.

- Aim: 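Genome-wide screen for host control of endosymbiont load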 (primary screen)
- Cells: Drosophila JW18 cells infected with Wolbachia
- Knock-down reagent: long dsRNA against Drosophila genes, 0.25 µg dsRNA per well of a 384-well plate
- Timing: 5 days
- Challenge: cells persistently infected with Wolbachia before knock-down; no added drug
- Detection: 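Automated imaging of bacterial rRNA staining divided by host cell count, reported as plate-normalised robust z-score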
- Reading the numbers: Wolbachia per cell robust z: higher = more Wolbachia per host cell than the plate typical
- Active means: 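Hit when robust z is 1.5 or more, or -1.5 or less, in at least two of three replicates; excludes dsRNAs with several or no targets, genes not expressed in JW18 and well A1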

The first 2 entries, ahead of the listing:
no.	gene	reagent no.	Wolbachia per cell robust z, rep 1	Wolbachia per cell robust z, rep 2	Wolbachia per cell robust z, rep 3	Call
1	CG9706 (GeneID 39876)	1	0.521	-0.444	-1.18	inactive
2	Cipc (GeneID 43177)	1	0.269	-0.117	0.0396	inactive

The list itself, from the first entry:
no.	gene	reagent no.	Wolbachia per cell robust z, rep 1	Wolbachia per cell robust z, rep 2	Wolbachia per cell robust z, rep 3	Call
1	CG9706 (GeneID 39876)	1	0.521	-0.444	-1.18	inactive
2	Cipc (GeneID 43177)	1	0.269	-0.117	0.0396	inactive
3	Cipc (GeneID 43177)	2	-0.0282	-0.0434	1.32	inactive
4	Crag (GeneID 31800)	1	0.148	0.572	0.174	inactive
5	CycB (GeneID 37618)	1	-0.171	-0.108	0.3	inactive
6	CycB (GeneID 37618)	2	-1.33	-0.513	-0.451	inactive
7	Fpgs2 (GeneID 326159)	1	0	-0.135	-0.123	inactive
8	CG31560 (GeneID 40772)	1	-0.688	-0.0312	0.881	inactive
9	PIG-F (GeneID 40139)	1	0.478	0.31	0.512	inactive
10	PIG-F (GeneID 40139)	2	0.901	-0.0788	1.31	inactive
11	euc (GeneID 42271)	1	-3.02	0.332	-1.46	inactive
12	alpha-Est8 (GeneID 40899)	1	-1.51	0.0763	0.268	inactive
13	Cdc50 (GeneID 32615)	1	-0.99	-2.28	0.469	inactive
14	Syp (GeneID 42460)	1	0.525	0.28	0.741	inactive
15	Syp (GeneID 42460)	2	-0.796	-0.153	-1.75	inactive
16	Syp (GeneID 42460)	3	0.667	-0.219	-5.2	inactive
17	CG32069 + Blos2	1	0.42	-8.19	-0.0258	inactive
18	poe (GeneID 46243)	1	-0.712	0.000568	-0.699	inactive
19	poe (GeneID 46243)	2	-0.368	0.135	0.161	inactive
20	cathD (GeneID 45268)	1	0.685	0.13	-0.0332	inactive
21	CG14989 (GeneID 38485)	1	0.564	-0.843	-0.969	inactive
22	CG14989 (GeneID 38485)	2	1.16	-0.482	-0.559	inactive
23	CG18545 (GeneID 41264)	1	-1.17	-1.49	-0.632	inactive
24	Fdx2 (GeneID 38530)	1	-1.6	-1.09	-1	inactive
25	CG7741 + Obp47b	1	-6.33	-4.51	-0.111	inactive
26	CG43795 (GeneID 5740629)	1	-0.181	0.428	-1.46	inactive
27	CG43795 (GeneID 5740629)	2	-0.0307	-1.18	-0.495	inactive
28	CG43795 (GeneID 5740629)	3	1.45	1.22	1.61	inactive
29	CG43795 (GeneID 5740629)	4	1.48	1.43	1.88	inactive
30	CG43795 (GeneID 5740629)	5	0.065	0.486	-0.87	inactive
31	CG43795 (GeneID 5740629)	6	-0.221	0.821	-1.61	inactive
32	CG43795 (GeneID 5740629)	7	-0.158	-0.152	-0.043	inactive
33	CG43795 (GeneID 5740629)	8	0.493	0.0695	0.339	inactive
34	CG43795 (GeneID 5740629)	9	0.09	-0.991	-0.561	inactive
35	CG16952 (GeneID 32546)	1	0.82	0.0679	0.326	inactive
36	CG30458 (GeneID 246624)	1	0.891	1.93	1.27	inactive
37	CG16984 (GeneID 38322)	1	-3.46	-4.59	-0.842	inactive
38	CG16984 (GeneID 38322)	2	-0.304	0.884	1.11	inactive
39	ana2 (GeneID 35878)	1	0.305	0.446	-0.868	inactive
40	ana2 (GeneID 35878)	2	-3.22	-0.679	-0.0512	inactive
41	Cyp6a19 (GeneID 36662)	1	-1.5	-0.631	-0.596	inactive
42	CG17026 (GeneID 39739)	1	1.22	0.906	1.79	inactive
43	CG17026 (GeneID 39739)	2	-1.06	-0.439	-0.79	inactive
44	PGS1 (GeneID 42254)	1	0.421	0.791	0.827	inactive
45	Rcc1 (GeneID 38669)	1	0.0933	1.4	1.78	inactive
46	Rcc1 (GeneID 38669)	2	-0.294	2.76	1.07	inactive
47	CG6574 (GeneID 41308)	1	0.26	1.11	0.606	inactive
48	CG10340 (GeneID 42020)	1	-2.37	-8.15	-5.54	active
49	CG5853 (GeneID 34322)	1	0.832	1.01	0.6	inactive
50	CG5853 (GeneID 34322)	2	-8.17	1.29	-9.92	inactive
51	rpr (GeneID 40015)	1	0.843	0.054	1.9	inactive
52	CG10445 (GeneID 40938)	1	-2.32	0.651	-0.58	inactive
53	CG13795 (GeneID 34049)	1	-0.133	0.558	0.543	inactive
54	prod (GeneID 37187)	1	0.726	-0.52	-0.887	inactive
55	prod (GeneID 37187)	2	-0.137	-0.0749	-0.0494	inactive
56	CG15822 (GeneID 38273)	1	-0.127	0.45	0.725	inactive
57	CG15822 (GeneID 38273)	2	-2.8	1.14	0.359	inactive
58	MED24 (GeneID 38914)	1	0.603	0.513	0.606	inactive
59	ohgt (GeneID 41230)	1	0.0772	-2.73	0.225	inactive
60	ohgt (GeneID 41230)	2	-0.303	0.39	-0.0177	inactive
61	CG5172 (GeneID 32711)	1	0.0807	-1.61	-1.64	inactive
62	CG5172 (GeneID 32711)	2	-1.05	-0.617	-6.63	inactive
63	rig (GeneID 37335)	1	1.33	1.62	0.0102	inactive
64	rig (GeneID 37335)	2	-0.147	0.55	-2.28	inactive
65	dany (GeneID 246593)	1	0.968	-2.91	-0.0177	inactive
66	SMC2 (GeneID 36653)	1	0.961	-2.34	0.781	inactive
67	SMC2 (GeneID 36653)	2	-1.48	0.014	-0.549	inactive
68	por (GeneID 32818)	1	1.21	1.24	-3.62	inactive
69	por (GeneID 32818)	2	-0.00323	0.58	0.12	inactive
